Results reported in publication PMC6747051, “Screening of Antiviral Components of Ma Huang Tang and Investigation on the Ephedra Alkaloids Efficacy on Influenza Virus Type A” (Frontiers in Pharmacology, 2019).

Tested on: influenza A virus
Experiment: Antiviral activity assay in vitro with four ways of drug delivery (MTT, MDCK cells)
Type: cell-based, influenza virus A/PR8/34 (H1N1)

| Structure (SMILES) | TI | TI (TI = TC50/EC50, Blocking viruses invading host cells) | TI (TI = TC50/EC50, Directly inhibiting virus) | TI (TI = TC50/EC50, Inhibiting the biosynthesis of virus) | TI (TI = TC50/EC50, Intervening the adsorption of virus) |
| --- | --- | --- | --- | --- | --- |
| CN[C@@H](C)[C@@H](O)c1ccccc1 [DPEP, D-pseudoephedrine] | 29.04 and 31.33 and 39.27 and 50.81 |  |  |  |  |
| CN[C@@H](C)[C@H](O)c1ccccc1 [LEP, L-ephedrine] | 19.64 and 30.13 and 34.26 and 38.02 |  |  |  |  |
| C[C@@H]([C@H](O)c1ccccc1)N(C)C [LMEP, L-methylephedrin] |  | 10.64 | 28.71 | 32.58 | 27.61 |

Values joined by “and” are separate entries in the source; they are usually repeats but may differ in a detail not shown here. Identical values can stand only once. Like-named read-outs stand apart in the source and are kept apart here.
